Measured values from several laboratories, pooled; numbers as filed in NIAID ChemDB.

All rows: enzyme or target tests; agent: Herpes simplex virus 1; target: DNA polymerase

An empty or dashed field is not shown. ICn is the concentration giving n% inhibition. Inhibition is in % at the dose shown (toxicity tests: loss of growth or viability). Conditions beyond the fields shown may differ between rows.

CP(=O)(O)CC(=O)O ; endpoint: IC50 ; result: 145 µg/mL
O=P(O)(O)C(Br)P(=O)(O)O ; endpoint: IC50 ; result: >100 µM
O=C(O)CCP(=O)(O)O ; endpoint: IC50 ; result: >500 µM
COC(=O)[C@H]1[C@H](O)[C@@H](C)[C@@H](O)[C@](C)(O)/C=C(\C)C2=C3C(=C(C)C(=O)c4c(O)c(c(C)c(OC(C)=O)c43)NC(=O)/C(C)=C/C=C\[C@@H](C)C(O)[C@@H](C)[C@H]1O)OCO2 ; endpoint: IC50 ; result: 220 µM
O=C(O)CP(=O)(O)O ; endpoint: IC50 ; result: 7 µM
CC(C)(C)OC(=O)CP(=O)(O)O ; endpoint: IC50 ; result: 3.9 µg/mL
CC(C(=O)O)P(=O)(O)O ; endpoint: IC50 ; result: 15 µM
CC(Cl)(C(=O)O)P(=O)(O)O ; endpoint: IC50 ; result: >100 µM
O=C(O)CP(=O)(O)c1ccccc1 ; endpoint: IC50 ; result: 200 µg/mL
CCOP(=O)(OCC)C(=O)OC ; endpoint: IC50 ; result: >35 µM
O=C(O)C(Br)P(=O)(O)O ; endpoint: IC50 ; result: 6 µM
CCOC(=O)P(=O)(O)O ; endpoint: IC50 ; result: >35 µM
O=C(O)C(Cl)(Cl)P(=O)(O)O ; endpoint: inhibition ; tested at: 100 µM ; result: 0%
O=C(O)CP(=O)(O)O ; endpoint: IC50 ; result: 0.5 µM
CC(Br)(C(=O)O)P(=O)(O)O ; endpoint: inhibition ; tested at: 100 µM ; result: 0%
Nc1ncnc2c1ccn2[C@@H]1O[C@H](COP(=O)(O)OP(=O)(O)OP(=O)(O)O)[C@@H](O)[C@@H]1O ; endpoint: Ki ; result: 17 µM

The first 2 rows once more:

compound | endpoint | tested at | result
CP(=O)(O)CC(=O)O | IC50 |  | 145 µg/mL
O=P(O)(O)C(Br)P(=O)(O)O | IC50 |  | >100 µM